Results reported in patent US20210255174.

Assays:
[1] = tested on: BoNT/A cleavable peptide #115: [5-Fam]TRIDEANQRATK[DABCYL]-Nle
[2] = tested on: BoNT/A cleavable peptide #116: [4-Mu]TRIDEANQRATK[DABCYL]-Nle

## Botulinum neurotoxin type A (BoNT/A), printed without saying whether complex, holotoxin or light chain
[1]
  KM: 4.99 µM
[2]
  KM: 2.62 µM
